# Share of PSTVd loop 15 variants by leaf site

From the data files of Wu et al. 2024, doi:10.1371/journal.ppat.1012142.

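A pool of all variants was put on leaves of three Nicotiana benthamiana plants. Progeny were sequenced from the inoculated region (day 5), the margin of the inoculated leaf (day 10) and systemic leaves (day 12).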

PSTVd intermediate strain, loop 15: wild type GGAAACCGCUACUAC, pool pattern GGAAACCGNNNNNNC; upper and lower strand joined, each 5' to 3', the first 7 letters being the upper strand, closing pairs included.

Values are reads per thousand in the sample; higher means more abundant, 0 means not found.
Each value is the mean of three plants.
"Pool" is the share in the plasmid pool used as inoculum, on the same scale.
The inoculated region was read from the minus strand, the other sites from the plus strand.
IR is the inoculated region, LM the leaf margin, Sys the systemic leaves.

sequence | pool | IR | LM | Sys
GGAAACCGAACGUCC | 0.240 | 0.0946 | 0.0187 | 0
GGAAACCGAAGAGAC | 0.192 | 0.0731 | 0.00668 | 0.00537
GGAAACCGAAUCUGC | 0.272 | 0.0877 | 0.0108 | 0
GGAAACCGAAUUUCC | 0.224 | 0.115 | 0.00668 | 0
GGAAACCGACAAGAC | 0.240 | 0.0998 | 0.0141 | 0
GGAAACCGACUUCUC | 0.160 | 0.0830 | 0.0208 | 0
GGAAACCGACUUGGC | 0.192 | 0.108 | 0.0216 | 0
GGAAACCGAGAGCGC | 0.176 | 0.344 | 0.0328 | 0.00537
GGAAACCGAGCAGAC | 0.272 | 0.0828 | 0.00668 | 0
GGAAACCGAGGACAC | 0.208 | 0.103 | 0.0208 | 0.0161
GGAAACCGAGGCAGC | 0.272 | 0.122 | 0.00539 | 0
GGAAACCGAGGUAGC | 0.256 | 0.0931 | 0.0195 | 0
GGAAACCGAUACUUC | 0.128 | 0.299 | 0.158 | 0.0701
GGAAACCGAUAUACC | 0.160 | 0.139 | 0.00539 | 0.00537
GGAAACCGAUGGUCC | 0.240 | 0.108 | 0 | 0
GGAAACCGAUUACGC | 0.224 | 0.116 | 0.0200 | 0
GGAAACCGAUUGUGC | 0.272 | 0.310 | 0.159 | 0.0107
GGAAACCGCAAACUC | 0.240 | 0.0773 | 0.0254 | 0
GGAAACCGCAAAUAC | 0.208 | 0.303 | 0.0590 | 0.0799
GGAAACCGCAACGCC | 0.128 | 0.164 | 0.00539 | 0.00504
GGAAACCGCAAGAUC | 0.160 | 0.288 | 0.124 | 0.0322
GGAAACCGCAGCCUC | 0.128 | 0.121 | 0.0128 | 0
GGAAACCGCAGGGCC | 0.160 | 0.141 | 0.00668 | 0
GGAAACCGCAUAAGC | 0.192 | 0.0792 | 0.00539 | 0
GGAAACCGCAUCAUC | 0.192 | 0.0450 | 0.0187 | 0
GGAAACCGCAUCUCC | 0.224 | 0.149 | 0.0121 | 0
GGAAACCGCAUCUGC | 0.128 | 0.173 | 0.00742 | 0.00537
GGAAACCGCAUUUGC | 0.240 | 0.118 | 0 | 0
GGAAACCGCCAGAAC | 0.240 | 0.320 | 0.0731 | 0.0610
GGAAACCGCCAGGCC | 0.320 | 0.0956 | 0.0175 | 0
GGAAACCGCCAUCCC | 0.240 | 0.0859 | 0 | 0.00537
GGAAACCGCCGCUCC | 0.208 | 0.0811 | 0 | 0
GGAAACCGCGCCCAC | 0.176 | 0.0713 | 0.00668 | 0
GGAAACCGCGUAAAC | 0.240 | 0.115 | 0.0208 | 0.00537
GGAAACCGCUGACGC | 0.224 | 0.0667 | 0 | 0
GGAAACCGCUUCAGC | 0.160 | 0.0896 | 0.0175 | 0
GGAAACCGGAAAUAC | 0.272 | 0.271 | 0.143 | 0.0686
GGAAACCGGAAAUCC | 0.272 | 0.0721 | 0.0202 | 0
GGAAACCGGAACUCC | 0.224 | 0.0885 | 0.00742 | 0.0104
GGAAACCGGAAUGUC | 0.192 | 0.0836 | 0.442 | 0
GGAAACCGGACGAGC | 0.208 | 0.130 | 0.00539 | 0
GGAAACCGGAUACAC | 0.320 | 0.0994 | 0.0134 | 0
GGAAACCGGCCGGCC | 0.192 | 0.104 | 0.00539 | 0
GGAAACCGGCCUAUC | 0.288 | 0.107 | 0 | 0.00537
GGAAACCGGGAUUAC | 0.256 | 0.336 | 0.111 | 0.0796
GGAAACCGGGGGACC | 0.144 | 0.115 | 0.0121 | 0
GGAAACCGGUAAUUC | 0.224 | 0.381 | 0.153 | 0.0543
GGAAACCGGUACAAC | 0.288 | 0.329 | 0.146 | 0.0158
GGAAACCGGUAUAAC | 0.240 | 0.341 | 0.0989 | 0.0619
GGAAACCGGUAUACC | 0.176 | 0.0900 | 0.0175 | 0
GGAAACCGGUCCCUC | 0.320 | 0.141 | 0.0187 | 0.00537
GGAAACCGGUGAAGC | 0.304 | 0.0792 | 0.0128 | 0
GGAAACCGUAAGAAC | 0.144 | 0.433 | 0.240 | 0.0585
GGAAACCGUAGGAUC | 0.256 | 0.0740 | 0.0187 | 0
GGAAACCGUAGGUUC | 0.160 | 0.317 | 0.120 | 0.0619
GGAAACCGUAGUCGC | 0.320 | 0.0678 | 0.00539 | 0
GGAAACCGUGCAGAC | 0.160 | 0.0588 | 0.0121 | 0
GGAAACCGUGCAGGC | 0.304 | 0.108 | 0.0128 | 0
GGAAACCGUGCGCCC | 0.224 | 0.116 | 0.0162 | 0
GGAAACCGUGGAACC | 0.272 | 0.0807 | 0.0364 | 0
GGAAACCGUGUUGGC | 0.192 | 0.0975 | 0.0128 | 0
GGAAACCGUUACCCC | 0.208 | 0.0958 | 0.0121 | 0.00537
GGAAACCGUUACCUC | 0.112 | 0.335 | 0.122 | 0.0742
GGAAACCGUUAUCCC | 0.176 | 0.142 | 0 | 0
GGAAACCGUUCACCC | 0.160 | 0.0864 | 0.0175 | 0

A selection of 8 entries from above:

GGAAACCGUGCGCCC (pool 0.224): IR 0.116; LM 0.0162; Sys 0.
GGAAACCGCAGCCUC (pool 0.128): IR 0.121; LM 0.0128; Sys 0.
GGAAACCGAUUACGC (pool 0.224): IR 0.116; LM 0.0200; Sys 0.
GGAAACCGCGCCCAC (pool 0.176): IR 0.0713; LM 0.00668; Sys 0.
GGAAACCGGAAAUAC (pool 0.272): IR 0.271; LM 0.143; Sys 0.0686.
GGAAACCGCCAUCCC (pool 0.240): IR 0.0859; LM 0; Sys 0.00537.
GGAAACCGAUAUACC (pool 0.160): IR 0.139; LM 0.00539; Sys 0.00537.
GGAAACCGCCGCUCC (pool 0.208): IR 0.0811; LM 0; Sys 0.

Wild type was 33.9 per thousand in the pool and the most common sequence in every sample (inoculated region 202, 200, 159; leaf margin 724, 746, 710; systemic leaves 856, 883, 880).
Sequences that differ at fixed positions probably stem from PCR or sequencing errors, and defective variants can be carried along by functional ones.
With 43,870-66,106 reads a sample, very low values are single reads.